Measured values from several laboratories, pooled; numbers as filed in NIAID ChemDB.

Common to all: tests in culture; organism: Hepatitis C virus; endpoint: EC50

Rows are shuffled and stem from different studies. An empty or dashed field is not shown. ECn is the concentration giving n% inhibition of infection, replication or growth. a–b is a range or a potency band.

SMILES | cell line | strain | result
Cc1oc(-c2cccc(NC(=O)[C@@H](C)NC(=O)c3ccc4c(c3)nc(-c3ccoc3)n4C3CCCCC3)c2)cc1C(=O)O | Huh7 |  | ≤5 µM
COC(=O)N[C@@H](C(=O)N1CCC[C@@H]1c1ncc(-c2cnc(-c3cnc(-c4cnc([C@H]5CCCN5C(=O)[C@H](NC(=O)OC)c5ccccc5)[nH]4)cn3)cn2)[nH]1)c1ccccc1 |  | 1b | 0.001–0.099 µM
Cc1cc(-c2nnc(NC3CC(O)(C(F)F)C3)o2)nc2c(C(C)(C)C)cc(NCC(F)(F)F)cc12 | Huh7 | GT 2a JFH | 0.025 µM
CCn1c(C(=O)O)cc2cc(NC(=O)C3(NC(=O)c4ccc5c(c4)nc(-c4ccoc4)n5C4CCCCC4)CCCC3)ccc21 | Huh7 |  | ≤5 µM
Nc1ccn([C@@H]2O[C@H](CO)C[C@H]2O)c(=O)n1 | Huh7 |  | 34.1 µM
CCCCCCCCOc1ccc(N(C(=O)CC(=O)OC)c2nc(-c3ccc(F)cc3)cs2)cc1 |  |  | <1 µM
COC(=O)N[C@H](C(=O)N1CCC[C@@H]1C1=NCC(c2cnc(-c3ccc(-c4cnc([C@H]5CCCN5C(=O)[C@@H](NC(=O)OC)[C@@H](C)OC)[nH]4)c(F)c3)nc2)=N1)[C@@H](C)OC |  | 1b | 0.00001–0.000999 µM
COc1cc(Cc2cnc(/N=C3\C(=O)N(CN4CCN(c5c(F)cc6c(=O)c(C(=O)O)cn(C7CC7)c6c5OC)CC4C)c4ccc(F)cc43)nc2N)cc(OC)c1OC | Huh7 |  | <50 µg/mL
CC(=O)Nc1ccc(-c2ccc3nc(N)nc(N4CCN(C)CC4)c3c2)cc1 | Huh7 |  | 1–10 µM
COc1cc(Cc2cnc(/N=C3\C(=O)N(CN4CCN(c5ccccc5)CC4)c4ccc(F)cc43)nc2N)cc(OC)c1OC | Huh7 |  | <50 µg/mL
C=CCNC(=O)N[C@H](C(=O)N1CC[C@H]2[C@H]1C1(CCC1)C(=O)N2C(=O)C1CC1)C(C)C |  |  | 1.6 µM
CC(=O)NC1=NN(CCO)c2ncnc3c2c1cn3C1(C)O[C@H](CO)[C@@H](O)[C@H]1O | Huh7 |  | 100 µM
Nc1nc(Nc2ccccc2)c2cc(-c3ccc(F)cc3)ccc2n1 | Huh7 |  | 0.3–1 µM
CCn1cc(C(=O)O)c(=O)c2cc(F)c(N3CCN(CN4C(=O)/C(=N\c5ncc(Cc6cc(OC)c(OC)c(OC)c6)c(N)n5)c5cc(F)ccc54)CC3)cc21 | Huh7 |  | <50 µg/mL
CCC[C@H](NC(=O)[C@@H]1[C@H]2CCC[C@H]2CN1C(=O)[C@@H](NC(=O)[C@@H](NC(=O)c1cnccn1)C1CCCCC1)C(C)(C)C)C(=O)C(=O)NC1CC1 | Huh7 | 1b | 0.8 µM
Nc1ncnc2ccc(-c3ccc(F)cc3)cc12 | Huh7 |  | 1–10 µM
C=C[C@@H]1C[C@]1(NC(=O)C1C[C@@H](Oc2cc(-c3csc(NC4CCCCC4)n3)nc3cc(OC)ccc23)CN1C(=O)[C@@H](NC(=O)OC1CCCC1)C(C)(C)C)C(=O)O | Huh7 |  | <0.5 µM
Cc1nc(C(=O)O)sc1-c1ccc(NC(=O)C2(NC(=O)c3ccc4c(c3)nc(-c3ccoc3)n4C3CCCCC3)CCCC2)cc1 | Huh7 |  | ≤5 µM
COC(=O)NC[C@H](C(=O)N1CCCC1c1ncc(-c2ccc(-c3ccc(-c4cnc(C5CCCN5C(=O)[C@@H](NC(=O)OC)C(C)C)[nH]4)cc3)cc2)[nH]1)C(C)C |  | HCV4a-21 | 0.000007 µM
COC(=O)N[C@@H](C(=O)N1CCC[C@@H]1c1ncc(-c2ccc(-c3ccc(-c4nc([C@H]5CCCN5C(=O)[C@H](NC(=O)OC)c5ccccc5)[nH]c4C(F)(F)F)cc3)cc2)[nH]1)c1ccccc1 |  | 1b | 0.00001–0.000999 µM
Nc1nc(=O)n([C@@H]2O[C@H](CO)C[C@H]2O)cc1F | Huh7 |  | 45.4 µM
CN(C)c1ncnc2ccc(-c3ccc(F)cc3)cc12 | Huh7 |  | 1–10 µM
C=C[C@@H]1C[C@]1(NC(=O)C1C[C@@H](Oc2cc(-c3csc(NC4CCCC4)n3)nc3cc(OC)ccc23)CN1C(=O)[C@@H](NC(=O)OC1CCC1)C(C)(C)C)C(=O)O | Huh7 |  | <0.5 µM
CC1CCC(C(=O)N(c2cc(C#CC(C)(C)C)sc2C(=O)O)C2CCC(O)CC2)CC1 | Huh7 | 1b | 0.0003 µM
CC(C)[C@H](NC(=O)N[C@H](CO)C(C)C)C(=O)N1CC[C@H]2[C@H]1C1(CCC1)C(=O)N2C(=O)C1CC1 |  |  | 0.5 µM
O=C(O)/C=C/c1ccc(NC(=O)C2(NC(=O)c3ccc4c(c3)nc(-c3ccoc3)n4C3CCCC3)CCCC2)cc1 | Huh7 |  | 5–50 µM
CCCCCCCCOc1ccc(N(C(=O)NCC)c2nc(-c3cccnc3)cs2)cc1 |  |  | >10 µM
COC(=O)N[C@@H](C(=O)N[C@@H](C)c1ncc(-c2ccc(-c3ccc(-c4cnc([C@H]5CCCN5C(=O)[C@H](NC(=O)OC)c5ccccc5)[nH]4)cn3)cc2)[nH]1)c1ccccc1 |  | 1b | 0.00001–0.000999 µM
C=Cc1c(C)c2cc3nc(c4c5nc(cc6[nH]c(cc1[nH]2)c(C)c6CC)C(C)C5C(=O)C4CC(=O)OC)[C@@H](CCC(=O)OC/C=C(\C)CCC[C@@H](C)CCC[C@@H](C)CCCC(C)C)[C@@H]3C | Huh7.5 | J6/JFH-P47 | 54.5 µg/mL
CC(C)[C@H](NC(N)=O)C(=O)N1CC[C@H]2[C@H]1C1(CCC1)C(=O)N2C(=O)C1CC1 |  |  | 2.2 µM
CCC[C@@H](NC(=O)[C@@H]1CC2CCCCC2N1C(=O)[C@@H](NC(=O)[C@@H](NC(=O)c1cnccn1)C1CCCCC1)C(C)(C)C)C(=O)C(=O)NC1CC1 |  |  | 1.1 µM
COc1cc(Cc2cnc(/N=C3\C(=O)N(CN(C)C)c4ccc(F)cc43)nc2N)cc(OC)c1OC | Huh7 |  | <50 µg/mL
CCCN1N=C(N)c2cn(C3(C)O[C@H](CO)[C@@H](O)[C@H]3O)c3ncnc1c23 | Huh7 |  | 100 µM
C=C[C@@H]1C[C@]1(NC(=O)C1C[C@@H](Oc2cc(-c3csc(NC4CCC4)n3)nc3cc(OC)ccc23)CN1C(=O)[C@@H](NC(=O)OC1CCCC1)C(C)(C)C)C(=O)O | Huh7 |  | <0.5 µM
COc1cc(Cc2cnc(/N=C3\C(=O)N(CN4CCN(C)CC4)c4ccc(F)cc43)nc2N)cc(OC)c1OC | Huh7 |  | <50 µg/mL
CC(C)NC(=O)N[C@H](C(=O)N1CC[C@H]2[C@H]1C1(CCC1)C(=O)N2C(=O)C1CC1)C(C)C |  |  | 6.3 µM
CCC[C@H](NC(=O)[C@@H]1C2CCCC2CN1C(=O)[C@@H](NC(=O)[C@@H](NC(=O)c1cnccn1)C(C)C)C(C)(C)C)C(=O)C(=O)NC(C)CC | Huh7 |  | 3.48 µM
OCC1CCC(c2ccc3ncnc(Nc4ccc(C5CCOCC5)cc4)c3c2)O1 | Huh7.5+J6/JFH-1 | 2a | 1.2 µM
CC(C)[C@H](NC(=O)NC1CCCCC1)C(=O)N1CC[C@H]2[C@H]1C1(CCC1)C(=O)N2C(=O)C1CC1 |  |  | 1.2 µM
CCCCCCCC(=O)CCCCCC/C=C/[C@H](C(=O)N[C@@H](Cc1ccc(CCCC(C)C)cc1)C(=O)O)[C@@](O)(CC(=O)O)C(=O)O |  |  | 0.012 µM
COC(=O)N[C@@H](C(=O)N1CCC[C@@H]1C1=NCC(c2ccc(-c3ccc(-c4cnc([C@H]5CCCN5C(=O)[C@H](NC(=O)OC)c5ccccc5)[nH]4)cc3)c(CN(C)C)c2)=N1)c1ccccc1 |  | 1b | 0.00001–0.000999 µM
O=C(O)/C=C/c1ccc(NC(=O)C2(NC(=O)c3ccc4c(c3)nc(-c3ccoc3)n4C3CCCCC3)CCC2)cc1 | Huh7 |  | ≤5 µM
CCCCCCCCOc1ccc(N(C(C)=O)c2nc(-c3cccnc3)c(F)s2)cc1C(F)(F)F |  |  | <1 µM
O=C(O)/C=C/c1ccc(NC(=O)C2(NC(=O)c3ccc4c(c3)nc(-c3ccoc3)n4C3CCCCC3)CCCCC2)cc1 |  |  | 1 µM
Fc1ccc(-c2ccc3ncnc(N4CCOCC4)c3c2)cc1 | Huh7 |  | 1–10 µM
CCCCCOc1ccc(N(C(=O)OC)c2nc(-c3ccc(F)cc3)cs2)cc1F |  |  | <1 µM
CCN1CCC(NC(=O)c2ccc3c(c2)nc(-c2ccoc2)n3C2CCCCC2)(C(=O)Nc2ccc(-c3nc(C(=O)O)cs3)cc2)CC1 | Huh7 |  | ≤5 µM
Cc1cc(-c2nnc(N[C@@H]3CCC[C@H](O)C3)o2)nc2c(C(C)(C)C)cc(NCC(F)(F)F)cc12 | Huh7 | GT 1b H94N | 0.0012 µM
O=c1nc(NO)c(I)cn1[C@@H]1O[C@H](CO)C[C@H]1O | Huh7 |  | 34.7 µM

A second listing of 3 rows from above:

SMILES	cell line	strain	result
Cc1cc(-c2nnc(NC3CC(O)(C(F)F)C3)o2)nc2c(C(C)(C)C)cc(NCC(F)(F)F)cc12	Huh7	GT 2a JFH	0.025 µM
COc1cc(Cc2cnc(/N=C3\C(=O)N(CN4CCN(c5ccccc5)CC4)c4ccc(F)cc43)nc2N)cc(OC)c1OC	Huh7		<50 µg/mL
CCN1CCC(NC(=O)c2ccc3c(c2)nc(-c2ccoc2)n3C2CCCCC2)(C(=O)Nc2ccc(-c3nc(C(=O)O)cs3)cc2)CC1	Huh7		≤5 µM